These results are taken from patent US4929718A, “Synthetic noxiustoxin related peptides” (Universidad Nacional Autonoma De Mexico, priority 1987, dated 1990).

For this series, the system named is albino mice (strain CD1). The series can be described thus: "in vivo" challenge / lethality tests of synthetic peptides by injection of mice. Particulars: dose and route not given in the sentence.

Consider “Tyrosine-Glycine-Serine-Serine-Alanine-Glycine-Alanine-Lysine-Cysteine-Methionine-Asparagine-Glycine-Lysine-Cysteine-Lysine-Cysteine-Tyrosine-Asparagine-Asparagine [NTX 21-39]”, for which the “toxicity in injected mice” value is on record as “not toxic”. For the molecule `CC[C@H](C)[C@H](NC(=O)[C@@H](N)[C@@H](C)O)C(=O)N[C@H](C(=O)N[C@@H](CC(N)=O)C(=O)N[C@H](C(=O)N[C@@H](CCCCN)C(=O)N[C@@H](CS)C(=O)N[C@H](C(=O)N[C@@H](CO)C(=O)O)[C@@H](C)O)C(C)C)[C@@H](C)CC` [NTX 1-9, Threonine-Isoleucine-Isoleucine-Asparagine-Valine-Lysine-Cysteine-Threonine-Serine], the “toxicity in injected mice” value was “symptoms of intoxication similar to those observed with native NTX”.
